US5589335A, “Hybridization promotion reagents” (Amoco Corporation, priority 1994, dated 1996)

System: 35-nucleotide oligomer pairs #855/dA112-730 and #853/dA125-854 (E. coli rRNA sequences)
Experiment: DNA:DNA oligomer hybrid melting

N=C(N)N [GuSCN, Guanidinium thiocyanate]
difference in the Td's of the two pairs of oligomers (37%-GC vs 66%-GC): 15 °C | Dissociation Temperature of DNA:DNA hybrid (GC-content 37%): 39 °C | Dissociation Temperature of DNA:DNA hybrid (GC-content 66%): 54 °C and 53 °C

Values joined by “and” are separate entries in the source; they are usually repeats but may differ in a detail not shown here. Identical values can stand only once.
